Pooled drug test results. Numbers come from NIAID ChemDB, via PubChem.

Common to all: tests in culture; species: Coxsackie virus; cell line: VERO; measure: EC50

ECn is the concentration giving n% inhibition of infection, replication or growth. Neighbouring rows are from separate reports. An empty or dashed field is not shown.

SMILES | strain or isolate | method | result
Nc1nccc2c1ncn2[C@@H]1C[C@H](CO)[C@@H](O)[C@H]1O | Strain B4 | cytopathic effect | >400 µg/mL
CCC(Sc1ncnc2c1cnn2CCCCO)C(N)=O | TYPE B4 | cytopathic effect | >400 µg/mL
CC1=Nn2c(nnc2-c2cn(-c3ccccc3)nc2-c2ccccc2)SC1 | TYPE B4 | cytopathic effect | >16 µg/mL
Nc1nccc2c1nnn2[C@H]1C[C@H](O)[C@@H](CO)O1 | B1 | plaque count | >396 µM
CC1(C)[C@@H](CO)CC[C@@]1(C)Cn1nnc2c(N)ncnc21 | TYPE B4 | cytopathic effect | >400 µg/mL
CON=C[C@H]1O[C@@H](n2cnc3c(N)ncnc32)[C@H](O)[C@@H]1O | Strain B4 | cytopathic effect | >100 µg/mL
C[C@@]1(O)[C@@H](CO)O[C@@H](n2cnc3c(N)ncnc32)[C@@H]1O | TYPE B4 | cytopathic effect | >100 µg/mL
NC(=O)c1cncc([C@H]2O[C@H](CO)[C@H](O)[C@@H]2O)c1 | TYPE B4 | cytopathic effect | ≥100 µg/mL
Nn1c(-c2cn(-c3ccccc3)nc2-c2ccccc2)n[nH]c1=S | TYPE B4 | cytopathic effect | >16 µg/mL
CSc1ncnc2c1cnn2Cc1cnnn1CCCCO | B4 |  | >400 µg/mL
COc1ccc(/C=N/N=C(\N)NO)cc1.Cc1ccc(S(=O)(=O)O)cc1 | ATCC VR28 (TYPE B1) | plaque count | >50 µM
Nc1nccc2c1nnn2[C@@H]1O[C@H](CO)[C@@H](O)[C@H]1O | B1 | plaque count | >398 µM
COC1=C2C[C@@H](C)C[C@@H](OC)[C@@H](O)[C@H](C)/C=C(\C)[C@@H](OC(N)=O)[C@H](OC)/C=C\C=C(/C)C(=O)NC(=CC1=O)C2=O | 3M (TYPE B3) |  | 3.35 µM
Nc1ncnc2c1ncn2[C@@H]1O[C@H](/C=N/O)C[C@H]1O | Strain B4 | cytopathic effect | >400 µg/mL
OCCSCc1c(-c2ccccc2)nc2ccccn12 | B4 | cytopathic effect | >70 µg/mL
Nc1ncnc2c1nnn2[C@@H]1O[C@H](CO)[C@@H](O)[C@H]1O | B1 | plaque count | >4.5 µM
CO[C@H](CO)[C@@H](O)CCn1cc(C)c(=O)[nH]c1=O | TYPE B4 | cytopathic effect | >400 µg/mL
Nc1ncnc2c1ncn2C[C@H](O)CO | TYPE B4 | cytopathic effect | 70 µg/mL
N#CC1=CSc2nnc(-c3cn(-c4ccccc4)nc3-c3ccccc3)n2N=C1N | TYPE B4 | cytopathic effect | 80 µg/mL
Cc1cccn2c(C3SCCS3)cnc12 | TYPE B4 |  | >1000 µM
Cc1cn([C@H]2C[C@H]([N+](=O)[O-])[C@@H](CO)O2)c(=O)[nH]c1=O |  | cytopathic effect | >200 µg/mL
NC(=S)c1cncc([C@@H]2O[C@H](CO)[C@@H](O)[C@@H]2O)c1 | TYPE B4 | cytopathic effect | ≥100 µg/mL
CC(Sc1ncnc2c1cnn2COCCO)C(N)=O | TYPE B4 | cytopathic effect | >400 µg/mL
NC1CCCON2CCc3c([nH]c4ccccc34)[C@H]12 | TYPE B4 | cytopathic effect | 7 µg/mL
Cc1ccc(C(=O)CCCCOc2ccc(C3=N[C@@H](C)CO3)cc2)s1 | TYPE B2 | cytopathic effect | 4.76 µM
N#Cc1cncc([C@H]2O[C@H](CO)[C@H](O)[C@@H]2O)c1 | TYPE B4 | cytopathic effect | ≥100 µg/mL
Cc1ccc(C(=O)CCCCCCOc2ccc(C3=NC(C)CO3)cc2)s1 | TYPE B5 | cytopathic effect | >25.97 µM
Cc1ccn2c(C3OCCS3)cnc2c1 | TYPE B4 |  | >1000 µM
Nc1ncnc2c1ncn2[C@@H]1O[C@H](C=NOCc2ccccc2)[C@@H](O)[C@H]1O | Strain B4 | cytopathic effect | >100 µg/mL
OC[C@H]1O[C@@H](n2nnc3c(Cl)nccc32)[C@H](O)[C@@H]1O | B1 | plaque count | >370 µM
O=c1[nH]n2c(-c3cn(-c4ccccc4)nc3-c3ccccc3)nnc2s1 | TYPE B4 | cytopathic effect | >80 µg/mL
Cc1ccn2c(C(SCCc3ccccc3)SCCc3ccccc3)cnc2c1 | TYPE B4 |  | >1000 µM
CC1(C)[C@@H](CO)CC[C@@]1(C)Cn1nnc2c(=O)[nH]cnc21 | TYPE B4 | cytopathic effect | >400 µg/mL
Nc1nccc2c1nnn2[C@H]1CC[C@@H](CO)O1 | B1 | plaque count | >387 µM
CO[C@H](CO)[C@@H](O)CCn1ccc(N)nc1=O | TYPE B4 | cytopathic effect | >400 µg/mL
Nc1ncnc2c1ncn2[C@H]1C[C@@H](CO)[C@H](O)[C@@H]1O | TYPE B4 | cytopathic effect | >400 µg/mL
NC1CSCCN2CCc3c([nH]c4ccccc34)[C@H]12 | TYPE B4 | cytopathic effect | 2 µg/mL
CC1(C)[C@@H](CO)CC[C@@]1(C)Cn1ccc(=O)[nH]c1=O | TYPE B4 | cytopathic effect | >400 µg/mL
c1ccc(-c2nn3c(-c4cn(-c5ccccc5)nc4-c4ccccc4)nnc3s2)cc1 | TYPE B4 | cytopathic effect | >16 µg/mL
CC(Sc1ncnc2c1cnn2CCCCO)C(N)=O | TYPE B4 | cytopathic effect | >400 µg/mL
Cc1ccc(C(=O)CCCCCCOc2ccc(C3=N[C@H](C)CO3)cc2)s1 | TYPE B2 | cytopathic effect | >25.97 µM
Cc1ccc(S(=O)(=O)O)cc1.N/C(=N/N=C/c1ccc2c(c1)OCO2)NO | ATCC VR28 (TYPE B1) | plaque count | >50 µM
Cc1cn([C@@H]2O[C@H](CO)[C@](O)(C(F)(F)F)[C@H]2O)c(=O)[nH]c1=O | B4 | cytopathic effect | >200 µg/mL
Cc1cn(CC[C@H](O)CCO)c(=O)[nH]c1=O | TYPE B4 | cytopathic effect | >400 µg/mL
OC[C@H]1O[C@@H](n2nc3ccnc(Cl)c3n2)[C@H](O)[C@@H]1O | B1 | plaque count | 80 µM
OC[C@H]1O[C@H](c2cncc(Br)c2)[C@@H](O)[C@@H]1O | TYPE B4 | cytopathic effect | ≥100 µg/mL
OC[C@H]1O[C@@H](n2nnc3ccnc(Cl)c32)[C@H](O)[C@@H]1O | B1 | plaque count | >370 µM
OCCCCn1cc(Cn2ncc3c(NCc4ccccc4)ncnc32)nn1 | B4 |  | >400 µg/mL
Nc1ncnc2c1nnn2[C@H]1C[C@H](O)[C@@H](CO)O1 | B1 | plaque count | >396 µM
N#Cc1cncc([C@H]2O[C@H](CO)[C@@H](O)[C@@H]2O)c1 | TYPE B4 | cytopathic effect | ≥100 µg/mL
COc1cc2c(cc1OC)[C@@H]1C(N)CSCON1CC2 | TYPE B4 | cytopathic effect | 0.2 µg/mL
OC[C@H]1O[C@@H](c2cncc(Br)c2)[C@@H](O)[C@@H]1O | TYPE B4 | cytopathic effect | ≥100 µg/mL
OC[C@H]1O[C@H](c2cc(Cl)c(F)cc2F)C[C@@H]1O | TYPE B4 | cytopathic effect | >80 µg/mL
CO[C@H](CO)[C@@H](O)CCn1cnc2c(N)ncnc21 | TYPE B4 | cytopathic effect | >400 µg/mL
NC(=O)c1cncc([C@@H]2O[C@H](CO)[C@H](O)[C@@H]2O)c1 | TYPE B4 | cytopathic effect | ≥100 µg/mL
Cc1ccc(C(=O)CCCCOc2ccc(C3=NC(C)(C)CO3)cc2)s1 | TYPE B5 | cytopathic effect | >26.95 µM
OCCCCn1nncc1Cn1ncc2c(SCc3ccccc3)ncnc21 | B4 |  | >400 µg/mL

For reference, 5 entries again:

{"SMILES": "COC1=C2C[C@@H](C)C[C@@H](OC)[C@@H](O)[C@H](C)/C=C(\\C)[C@@H](OC(N)=O)[C@H](OC)/C=C\\C=C(/C)C(=O)NC(=CC1=O)C2=O", "strain or isolate": "3M (TYPE B3)", "result": "3.35 µM"}
{"SMILES": "CC(Sc1ncnc2c1cnn2COCCO)C(N)=O", "strain or isolate": "TYPE B4", "method": "cytopathic effect", "result": ">400 µg/mL"}
{"SMILES": "OC[C@H]1O[C@@H](n2nnc3c(Cl)nccc32)[C@H](O)[C@@H]1O", "strain or isolate": "B1", "method": "plaque count", "result": ">370 µM"}
{"SMILES": "Nc1ncnc2c1ncn2C[C@H](O)CO", "strain or isolate": "TYPE B4", "method": "cytopathic effect", "result": "70 µg/mL"}
{"SMILES": "NC(=S)c1cncc([C@@H]2O[C@H](CO)[C@@H](O)[C@@H]2O)c1", "strain or isolate": "TYPE B4", "method": "cytopathic effect", "result": "≥100 µg/mL"}